# Assay results published in patent US9896482B2, “Beta hairpin peptides having antiviral properties against Dengue virus” (CENTRO DE INGENIERÍA GENÉTICA Y BIOTECNOLOGÍA, priority 2014, dated 2018).
# Where a SMILES comes first, the peptide text is derived from it. Bridges are numbered along the chain shown (N, C = ends). [ ]: non-standard residue; d: D form.
# Test system: DENV serotype 2 (NIBSC code S16803)
# Experiment: Plaque reduction assay in Vero cells, DENV2
# Type: cell-based, Dengue virus
# Details: DENV2, ratio CC50 / IC50
# Procedure: The cells were grown in 24 well plates until the monolayer reached approximately 90% confluence, after which they were washed twice with MEM medium without Fetal Bovine Serum (FBS). Then, peptide dilutions were added and the cell-peptide mixtures were incubated typically for 1 hour at 37° C., followed by the addition of a DENV serotype 2 preparation (NIBSC code S16803) at a multiplicity of infection (m.o.i.) of 0.001. The cells were then incubated for 1 hour at 37° C., and once the period of incubation with the viral inoculum concluded, were washed again to remove unbound virions and incubated for 5 days at 37° C. in high density medium (MEM supplemented with non-essential amino acids, 1% FBS, 1% carboxymethylcellulose) in order to let viral plaques form. Afterwards, the cells were stained with 0.1% Naphtol Blue Black in 0.15 M sodium acetate. Two replicates per experimental point were used in each assay, and three independent determinations were performed for each sample.
# Next, it was decided to compare the antiviral activity of peptides PHB4 and HDIII3CL against all four DENV serotypes, with the objective of comparing their respective IC50 values. This comparison was performed with plaque reduction assays on Vero cells, adding the viral inoculum for each serotype (DENV1, NIBSC code West Pac 74, DENV2, NIBSC, code S16803; DENV3, NIBSC, code CH53489; DENV 4, NIBSC code TVP360) at a m.o.i. of 0.001.
row,SMILES,SI (selectivity index)
1,"CC[C@H](C)[C@@H]1NC(=O)CNC(=O)[C@H]([C@@H](C)CC)NC(=O)[C@H](C(C)C)NC(=O)[C@H]([C@@H](C)CC)NC(=O)[C@H](CC(N)=O)NC(=O)[C@H](CO)NC(=O)[C@@H](N)CSSC[C@@H](C(=O)N[C@@H](CCCCN)C(=O)N[C@@H](CCCCN)C(=O)N[C@@H](CCCCN)C(N)=O)NC(=O)[C@H](Cc2c[nH]c3ccccc23)NC(=O)[C@H](CC(N)=O)NC(=O)[C@H]([C@@H](C)CC)NC(=O)[C@H](CCCCN)NC(=O)[C@H](CC(C)C)NC(=O)[C@H](C)NC(=O)[C@H](CCCCN)NC(=O)[C@H](CC(=O)O)NC(=O)CNC1=O [HDIII3CL2, reference compound] (H-CSNIVIGIGDKALKINWCKKK-NH2; disulfide 1-18)",50
2,"CC[C@H](C)[C@@H]1NC(=O)CNC(=O)[C@H]([C@@H](C)CC)NC(=O)[C@H](C(C)C)NC(=O)[C@H]([C@@H](C)CC)NC(=O)[C@H](CC(N)=O)NC(=O)[C@H](CO)NC(=O)[C@@H](N)CSSC[C@@H](C(=O)N[C@@H](CCCCN)C(=O)N[C@@H](CCCCN)C(N)=O)NC(=O)[C@H](Cc2c[nH]c3ccccc23)NC(=O)[C@H](CC(N)=O)NC(=O)[C@H]([C@@H](C)CC)NC(=O)[C@H](CCCCN)NC(=O)[C@H](CC(C)C)NC(=O)[C@H](C)NC(=O)[C@H](CCCCN)NC(=O)[C@H](CC(=O)O)NC(=O)CNC1=O [HDIII3CL, reference compound] (H-CSNIVIGIGDKALKINWCKK-NH2; disulfide 1-18)",50
3,CC(C)[C@@H]1NC(=O)[C@H](CCCCN)NC(=O)[C@H](CCCCN)NC(=O)[C@H](CC(=O)O)NC(=O)[C@H]2CCCN2C(=O)[C@H](CCC(=O)O)NC(=O)[C@H]([C@@H](C)O)NC(=O)[C@H](Cc2c[nH]c3ccccc23)NC(=O)[C@H](CC(N)=O)NC(=O)[C@H](C(C)C)NC(=O)[C@@H](N)CSSC[C@@H](C(=O)N[C@@H](CCCCN)C(=O)N[C@@H](CCCCN)C(=O)N[C@@H](CCCCN)C(N)=O)NC(=O)[C@H](Cc2c[nH]c3ccccc23)NC(=O)[C@H](CC(N)=O)NC1=O [PHB1] (H-CVNWTE[dP]DKKVNWCKKK-NH2; disulfide 1-14),>>13
4,CC(C)[C@@H]1NC(=O)[C@H](CCCCN)NC(=O)[C@H](Cc2c[nH]c3ccccc23)NC(=O)[C@H](CCCCN)NC(=O)[C@H]2CCCN2C(=O)[C@H](CCCNC(=N)N)NC(=O)[C@H]([C@@H](C)O)NC(=O)[C@H](Cc2c[nH]c3ccccc23)NC(=O)[C@H](Cc2ccc(O)cc2)NC(=O)[C@H](C(C)C)NC(=O)[C@@H](N)CSSC[C@@H](C(=O)N[C@@H](CCCCN)C(=O)N[C@@H](CCCCN)C(=O)N[C@@H](CCCCN)C(N)=O)NC(=O)[C@H](Cc2c[nH]c3ccccc23)NC(=O)[C@H](CC(N)=O)NC1=O [PHB2] (H-CVYWTR[dP]KWKVNWCKKK-NH2; disulfide 1-14),7
5,CC[C@H](C)[C@@H]1NC(=O)[C@H](Cc2ccccc2)NC(=O)[C@H](Cc2c[nH]c3ccccc23)NC(=O)[C@H](CC(N)=O)NC(=O)[C@H](C(C)C)NC(=O)[C@H](CCCCN)NC(=O)[C@H](CCCCN)NC(=O)[C@H](CC(=O)O)NC(=O)[C@H]2CCCN2C(=O)[C@H](CCC(=O)O)NC(=O)[C@H]([C@@H](C)O)NC(=O)[C@H](Cc2c[nH]c3ccccc23)NC(=O)[C@H](CC(N)=O)NC(=O)[C@H](C(C)C)NC(=O)[C@H](CCC(=O)O)NC(=O)[C@H]([C@@H](C)CC)NC(=O)[C@@H](N)CSSC[C@@H](C(=O)N[C@@H](CCCCN)C(=O)N[C@@H](CCCCN)C(=O)N[C@@H](CCCCN)C(N)=O)NC1=O [PHB3] (H-CIEVNWTE[dP]DKKVNWFICKKK-NH2; disulfide 1-18),>>59
6,CC[C@H](C)[C@@H]1NC(=O)[C@H](Cc2ccccc2)NC(=O)[C@H](Cc2c[nH]c3ccccc23)NC(=O)[C@H](CC(N)=O)NC(=O)[C@H](C(C)C)NC(=O)[C@H](CCCCN)NC(=O)[C@H](Cc2c[nH]c3ccccc23)NC(=O)[C@H](CCCCN)NC(=O)[C@H]2CCCN2C(=O)[C@H](CCCNC(=N)N)NC(=O)[C@H]([C@@H](C)O)NC(=O)[C@H](Cc2c[nH]c3ccccc23)NC(=O)[C@H](Cc2ccc(O)cc2)NC(=O)[C@H](C(C)C)NC(=O)[C@H](CCC(=O)O)NC(=O)[C@H]([C@@H](C)CC)NC(=O)[C@@H](N)CSSC[C@@H](C(=O)N[C@@H](CCCCN)C(=O)N[C@@H](CCCCN)C(=O)N[C@@H](CCCCN)C(N)=O)NC1=O [PHB4] (H-CIEVYWTR[dP]KWKVNWFICKKK-NH2; disulfide 1-18; N-terminus assumed),4333
7,CC(C)[C@H](NC(=O)[C@H](CC(N)=O)NC(=O)[C@H](Cc1c[nH]c2ccccc12)NC(=O)[C@@H](NC(=O)[C@H](Cc1c[nH]c2ccccc12)NC(=O)[C@H](CCCCN)NC(=O)[C@H](CC(N)=O)NC(=O)[C@@H](CCCCN)NC(=O)[C@H](CCC(=O)O)NC(=O)[C@H](Cc1c[nH]c2ccccc12)NC(=O)[C@H](CCCCN)NC(=O)[C@H](Cc1c[nH]c2ccccc12)NC(=O)[C@H](CC(N)=O)NC(=O)[C@H](Cc1c[nH]c2ccccc12)NC(=O)[C@@H](N)Cc1ccccc1)[C@@H](C)O)C(=O)N[C@@H](CCC(=O)O)C(=O)NCC(=O)NCC(=O)N[C@@H](CCCCN)C(=O)N[C@@H](CCCCN)C(=O)N[C@@H](CCCCN)C(N)=O [PHB5] (H-FWNWKWE[dK]NKWTWNVEGGKKK-NH2),15
8,CC(C)[C@H](NC(=O)[C@H](CC(N)=O)NC(=O)[C@H](Cc1c[nH]c2ccccc12)NC(=O)[C@@H](NC(=O)[C@H](Cc1c[nH]c2ccccc12)NC(=O)[C@H](CCCCN)NC(=O)[C@H](CC(N)=O)NC(=O)[C@H]1CCCN1C(=O)[C@H](CCC(=O)O)NC(=O)[C@H](Cc1c[nH]c2ccccc12)NC(=O)[C@H](CCCCN)NC(=O)[C@H](Cc1c[nH]c2ccccc12)NC(=O)[C@H](CC(N)=O)NC(=O)[C@H](Cc1c[nH]c2ccccc12)NC(=O)[C@@H](N)Cc1ccccc1)[C@@H](C)O)C(=O)N[C@@H](CCC(=O)O)C(=O)NCC(=O)NCC(=O)N[C@@H](CCCCN)C(=O)N[C@@H](CCCCN)C(=O)N[C@@H](CCCCN)C(N)=O [PHB6] (H-FWNWKWE[dP]NKWTWNVEGGKKK-NH2),12
9,CC[C@H](C)[C@@H]1NC(=O)[C@H]([C@@H](C)O)NC(=O)[C@H](C(C)C)NC(=O)[C@H](CC(N)=O)NC(=O)[C@H](C(C)C)NC(=O)[C@@H](N)CSSC[C@@H](C(=O)N[C@@H](CCCCN)C(=O)N[C@@H](CCCCN)C(=O)N[C@@H](CCCCN)C(N)=O)NC(=O)[C@H](Cc2c[nH]c3ccccc23)NC(=O)[C@H](CC(N)=O)NC(=O)[C@H](Cc2ccc(O)cc2)NC(=O)[C@H](CCCCN)NC(=O)[C@H](CCCCN)NC(=O)CNC(=O)[C@H](CC(N)=O)NC1=O [PHB7] (H-CVNVTINGKKYNWCKKK-NH2; disulfide 1-14),24
10,CC[C@H](C)[C@@H]1NC(=O)[C@H](Cc2ccccc2)NC(=O)[C@H](Cc2c[nH]c3ccccc23)NC(=O)[C@H](CC(N)=O)NC(=O)[C@H](Cc2ccc(O)cc2)NC(=O)[C@H](CCCCN)NC(=O)[C@H](CCCCN)NC(=O)CNC(=O)[C@H](CC(N)=O)NC(=O)[C@H]([C@@H](C)CC)NC(=O)[C@H]([C@@H](C)O)NC(=O)[C@H](C(C)C)NC(=O)[C@H](CC(N)=O)NC(=O)[C@H](C(C)C)NC(=O)[C@H](CCC(=O)O)NC(=O)[C@H]([C@@H](C)CC)NC(=O)[C@@H](N)CSSC[C@@H](C(=O)N[C@@H](CCCCN)C(=O)N[C@@H](CCCCN)C(=O)N[C@@H](CCCCN)C(N)=O)NC1=O [PHB8] (H-CIEVNVTINGKKYNWFICKKK-NH2; disulfide 1-18),20
11,CC[C@H](C)[C@@H]1NC(=O)[C@H](Cc2ccccc2)NC(=O)[C@H](Cc2c[nH]c3ccccc23)NC(=O)[C@H](CC(N)=O)NC(=O)[C@H](Cc2ccc(O)cc2)NC(=O)[C@H](CCCCN)NC(=O)[C@H](CCCCN)NC(=O)CNC(=O)[C@H](CC(N)=O)NC(=O)[C@H]([C@@H](C)CC)NC(=O)[C@H]([C@@H](C)O)NC(=O)[C@H](C(C)C)NC(=O)[C@H](Cc2ccc(O)cc2)NC(=O)[C@H](C(C)C)NC(=O)[C@H](CCC(=O)O)NC(=O)[C@H]([C@@H](C)CC)NC(=O)[C@@H](N)CSSC[C@@H](C(=O)N[C@@H](CCCCN)C(=O)N[C@@H](CCCCN)C(=O)N[C@@H](CCCCN)C(N)=O)NC1=O [PHB9] (H-CIEVYVTINGKKYNWFICKKK-NH2; disulfide 1-18),31

# Same assay, conditions: all four DENV serotypes
row,SMILES,Selectivity indexes depending on the specific serotype
1,CC[C@H](C)[C@@H]1NC(=O)[C@H](Cc2ccccc2)NC(=O)[C@H](Cc2c[nH]c3ccccc23)NC(=O)[C@H](CC(N)=O)NC(=O)[C@H](C(C)C)NC(=O)[C@H](CCCCN)NC(=O)[C@H](Cc2c[nH]c3ccccc23)NC(=O)[C@H](CCCCN)NC(=O)[C@H]2CCCN2C(=O)[C@H](CCCNC(=N)N)NC(=O)[C@H]([C@@H](C)O)NC(=O)[C@H](Cc2c[nH]c3ccccc23)NC(=O)[C@H](Cc2ccc(O)cc2)NC(=O)[C@H](C(C)C)NC(=O)[C@H](CCC(=O)O)NC(=O)[C@H]([C@@H](C)CC)NC(=O)[C@@H](N)CSSC[C@@H](C(=O)N[C@@H](CCCCN)C(=O)N[C@@H](CCCCN)C(=O)N[C@@H](CCCCN)C(N)=O)NC1=O [PHB4] (H-CIEVYWTR[dP]KWKVNWFICKKK-NH2; disulfide 1-18; N-terminus assumed),1290 to 6450
